Measurements published in patent US20160347827A1 (HENRY M JACKSON FOUNDATION FOR THE ADVANCEMENT OF MILITARY …, published 2016).

Target: soluble F glycoprotein (sF)
Experiment: SPR, Biacore 3000, mAb captured by anti-Fc on CM5, sF in solution

B1: murine 5B3 monoclonal antibody (antibody, V domains shown)
VH: EVQLVESGGGLVKPGGSLKLSCAASGFTFSSYDMSWVRQTPEKRLEWVAMISSGGSYSYYPDSVKGRFTISRDNAKNTLYLQMSSLRSEDTAMYYCARQGDYAWFAYWGQGTLVTVS
VL: DIQMTQSPASQSASLGESVTITCLASQTIGTWLAWYQQKPGKSPQLLIYAATSLADGVPSRFSGSGSGTKFSFKISSLQAEDFVSYYCQQFYSTPFTFGGGTKLEIKR
Question: With B1 as the binder, how does the koff read?
Answer: The koff was 9.2e-05 s⁻¹.

Question: And the kon?
Answer: Its kon is 34000 M⁻¹ s⁻¹.
